Anti-infective test results gathered from many reports (values: NIAID ChemDB through PubChem).

Shared fields: whole-cell or culture tests; agent: HIV-1; read-out: EC50

a–b is a range or a potency band. Conditions beyond the fields shown may differ between rows. ECn is the concentration giving n% inhibition of infection, replication or growth. An empty or dashed field is not shown.

smiles | setting | cells | mutations | method | strain or isolate | value
Cc1cc(Cl)cc(C(=O)c2cc(Cl)ccc2OCC(=O)Nc2ccc(S(N)(=O)=O)cc2C)c1 |  | HeLa + HELA CD4+ | RT-V106I Y181C | β-galactosidase | HXB2 | 0.011–0.1 µM
CC(C)C1=C2[C@H]3CC[C@@H]4[C@@]5(C)CC[C@H](OC(=O)C6C[C@@H](C(=O)O)C6(C)C)C(C)(C)[C@@H]5CC[C@@]4(C)[C@]3(C)CC[C@@]2(NC(=O)C(C)(C)NC(=O)c2ccc(CN3CCS(=O)(=O)CC3)cc2)CC1=O |  | MT-4 |  | p24 | NL4-3 | 0.00501–0.01 µM
C#Cc1ccc(Nc2nccc(Oc3c(C)cc(-c4cn(CCc5cccs5)nn4)cc3C)n2)cc1 |  | MT-4 | E138K | MTT | IIIB | 0.61 µM
Cc1cc(S(N)(=O)=O)ccc1NC(=O)COc1ccc(Cl)cc1C(=O)c1cc(F)cc(C(F)(F)F)c1 |  | HeLa + HELA CD4+ | RT-K101E | β-galactosidase | HXB2 | <0.01 µM
CC(C)C1=C2[C@H]3CC[C@@H]4[C@@]5(C)CC[C@H](OC(=O)C6C[C@@H](C(=O)O)C6(C)C)C(C)(C)[C@@H]5CC[C@@]4(C)[C@]3(C)CC[C@@]2(NC(=O)C2(NC(=O)c3cccnc3N3CCOCC3)CCC2)CC1=O |  | MT-4 |  | p24 | NL4-3 | <0.005 µM
Cc1cc(S(N)(=O)=O)ccc1NC(=O)COc1ccc(Cl)cc1C(=O)c1cc(F)cc(F)c1 |  | HeLa + HELA CD4+ | RT-L100I | β-galactosidase | HXB2 | <0.01 µM
Cc1cccc(NC(=O)NC(C)(C)C(=O)N[C@@]23CC[C@]4(C)[C@H](CC[C@@H]5[C@@]6(C)CC[C@H](OC(=O)C7C[C@@H](C(=O)O)C7(C)C)C(C)(C)[C@@H]6CC[C@]54C)C2=C(C(C)C)C(=O)C3)n1 |  | MT-4 |  | p24 | NL4-3 | <0.005 µM
CC(=O)Nc1cnc(Oc2c(Br)cc(Br)cc2Br)nc1Nc1ccc(C#N)cc1 |  | MT-4 |  | MTT | RES056 | >118 µM
Cc1nc2ccccc2c(-c2ccc(Cl)cc2)c1[C@H](OC(C)(C)C)C(=O)O |  | MT-4 |  |  |  | 0.055 µM
C[C@@H]1O[C@@H](Oc2c(-c3ccc(O)cc3)oc3cc(O)cc(O)c3c2=O)[C@H](O[C@@H]2O[C@H](COC(=O)/C=C/c3ccc(O)cc3)[C@@H](O)[C@H](O)[C@H]2O)[C@H](O)[C@H]1O | pseudotyped | TZM-bl |  | visual reading / absorbance | HXB2 | 10.1 µM
Cc1cc(S(N)(=O)=O)ccc1NC(=O)COc1ccc(Cl)cc1C(=O)c1cc(Cl)cc(C#N)c1 |  | HeLa + HELA CD4+ | RT-Y181C | β-galactosidase | HXB2 | <0.01 µM
Cc1ncc(-c2ccc(OC3CCC3C)cn2)c(N2CCC(C)(C)CC2)c1[C@H](OC(C)(C)C)C(=O)O |  | MT-2 |  | luminescence | NL4-3 | 0.0016 µM
Nc1ncnc2c1ncn2C1CC(O)C(COP(=O)(O)OP(=O)(O)OC2CC(n3cnc4c(N)ncnc43)OC2COP(=O)(O)O)O1 |  | MT-4 |  | cytopathic effect / MTT | IIIB | >100 µM
CC(=O)Nc1cnc(Oc2c(C)cc(C#N)cc2C)nc1Nc1ccc(C#N)cc1 |  | MT-4 |  | MTT | RES056 | >313 µM
Cc1ncc(-c2ccc(N(C)CCOc3cc(F)cc(F)c3)cn2)c(N2CCC(C)(C)CC2)c1[C@H](OC(C)(C)C)C(=O)O |  | MT-2 |  | luminescence | NL4-3 | 0.01 µM
Cc1cc(C#N)cc(C(=O)c2cc(Cl)ccc2OCC(=O)Nc2ccc(S(N)(=O)=O)cc2C)c1 |  | HeLa + HELA CD4+ | RT-G190A | β-galactosidase | HXB2 | <0.01 µM
CC(=O)OC[C@H]1O[C@@H](n2c3c(c(-c4ccc(Cl)cc4)c(C#N)c2=S)Cc2ccccc2-3)[C@H](OC(C)=O)[C@@H](OC(C)=O)[C@H]1OC(C)=O |  | MT-4 |  | cytopathic effect / MTT |  | 5.56 µM
CN1N=C(N)c2cn([C@@H]3O[C@H](COP(=O)(O)O)[C@@H](O)[C@H]3O)c3ncnc1c23 |  | H9 |  | p24 | IIIB | 0.03 µM
Cc1ncc(-c2ccc(OCCOc3ccccn3)cn2)c(N2CCC(C)(C)CC2)c1[C@H](OC(C)(C)C)C(=O)O |  | MT-2 |  | luminescence | NL4-3 | 0.0018 µM
CNc1cc2c(=O)c(C(=O)O)cn(N(C)C)c2cc1N1CCN(c2ccccn2)CC1 |  | MT-4 |  | cytopathic effect / MTT | IIIB | >178 µM
C#Cc1ccc(Nc2nccc(Oc3c(C)cc(-c4cn(Cc5ccc(C(=O)OC)cc5)nn4)cc3C)n2)cc1 |  | MT-4 |  | MTT | IIIB | 0.064 µM
CCCCCCCCCCCCCCCCCC1N[C@@H](CO)[C@H](O)[C@H](O)[C@@H]1O |  | TZM-bl |  | luciferase | NL4-3 | 3 µM
CC(C)C1=C2[C@H]3CC[C@@H]4[C@@]5(C)CC[C@H](OC(=O)C6C[C@@H](C(=O)O)C6(C)C)C(C)(C)[C@@H]5CC[C@@]4(C)[C@]3(C)CC[C@@]2(NC(=O)C(C)(C)NC(=O)c2ccc(N3CCOCC3)cc2)CC1=O |  | MT-4 | V7A | p24 | NL4-3 | <0.01 µM
CCC(CO)n1cc(C(=O)O)c(=O)c2cc(N)c(N3CCN(c4ccccn4)CC3)cc21 |  | MT-4 |  | cytopathic effect / MTT | IIIB | >25.26 µM
CC(=O)Nc1cnc(Oc2c(C)cc(C)cc2C)nc1Nc1ccc(C#N)cc1 |  | MT-4 |  | MTT | RES056 | >322 µM
CC(C)C1=C2[C@H]3CC[C@@H]4[C@@]5(C)CC[C@H](OC(=O)C6C[C@@H](C(=O)O)C6(C)C)C(C)(C)[C@@H]5CC[C@@]4(C)[C@]3(C)CC[C@@]2(NC(=O)C(C)(C)NS(=O)(=O)c2ccc(Cl)cc2)CC1=O |  | MT-4 | V7A | p24 | NL4-3 | >0.05 µM
O=C(O)C1=CC(=C(c2ccc(O)c(C(=O)O)c2)c2ccc(O)c(C(=O)O)c2)C=CC1=O |  | HuT-78 |  | cytopathic effect |  | 0.69 µM
Cc1cc(C=O)cc(C)c1Oc1ncc([N+](=O)[O-])c(Nc2ccc(C#N)cc2)n1 |  | MT-4 |  | MTT | IIIB | 0.61 µM
CC1=CC(=C(c2ccc(N)c(S(=O)(=O)O)c2)c2ccc(N)c(S(=O)(=O)O)c2)C=C(S(=O)(=O)O)C1=N |  | MT-4 |  | cytopathic effect |  | 42 µM
CCc1cc(C#N)cc(C(=O)c2cc(Cl)ccc2OCC(=O)Nc2ccc(S(N)(=O)=O)cc2C)c1 |  | HeLa + HELA CD4+ |  | β-galactosidase | WTRVA | <0.01 µM
CC1=C(CO)CC(C(C)C2CCC3C4CC=C5CC(OC6OC(COC7OC(CO)C(O)C(O)C7O)C(O)C(O)C6O)CC(O)C5(C)C4CCC23C)OC1=O | pseudotyped | TZM-bl |  | visual reading / absorbance | HXB2 | 16.2 µM
Cc1ncc(-c2cnc(OCCC3=CCCCC3)c(F)c2)c(N2CCC(C)(C)CC2)c1[C@H](OC(C)(C)C)C(=O)O |  | MT-2 |  | luminescence | NL4-3 | 0.0054 µM
COc1cc2ccnc3c2c(c1OCCCCCCCCCOc1c(OC)cc2ccnc4c2c1N(C)C=C4)N(C)C=C3 |  | PBMC |  |  |  | 0.52 µM
C[C@]1(CO)O[C@@H](n2cnc3c(N)ncnc32)C[C@@H]1O |  | TZM-bl | (delta)Env | luciferase |  | 0.069 µM
CC(C)C1=C2[C@H]3CC[C@@H]4[C@@]5(C)CC[C@H](OC(=O)C6C[C@@H](C(=O)O)C6(C)C)C(C)(C)[C@@H]5CC[C@@]4(C)[C@]3(C)CC[C@@]2(NC(=O)C(C)(C)NC(=O)c2nccn2C)CC1=O |  | MT-4 | V7A | p24 | NL4-3 | >0.05 µM
Cc1cc(OCCCS(N)(=O)=O)ccc1NC(=O)COc1ccc(Cl)cc1C(=O)c1cc(F)cc(C(F)(F)F)c1 |  | MT-4 |  | cytopathic effect / propidium iodide | IIIB | <0.01 µM
Nc1cc2c(=O)c(C(=O)O)cn(C3CC3)c2nc1N1CCN(c2ccccn2)CC1 |  | MT-4 |  | cytopathic effect / MTT | IIIB | 1.3 µM
Nc1nc2c(ncn2C2CC(O)C(COP(=O)(O)OP(=O)(O)OC3CC(n4cnc5c(=O)[nH]c(N)nc54)OC3COP(=O)(O)O)O2)c(=O)[nH]1 |  | MT-4 |  | cytopathic effect / MTT | IIIB | >100 µM
Cc1ccc(NC(=O)CN2CCN(Cc3nc(-c4ccc(F)cc4)no3)CC2)cc1 |  | PBMC |  | RT activity | 92UG024 | 8.5 µM
COc1ccccc1N1CCN(c2cc3c(cc2N)c(=O)c(C(=O)O)cn3C2CC2)CC1 |  | MT-4 |  | cytopathic effect / MTT | IIIB | >23.77 µM
O=C(O[C@@H]1OC2COC(=O)c3cc(O)c(O)c(O)c3-c3c(cc(O)c(O)c3O)C(=O)O[C@@H](C1O)[C@@H]2O)c1cc(O)c(O)c(O)c1 | pseudotyped | TZM-bl |  | visual reading / absorbance | HXB2 | >100 µg/mL
CCCN1C=Cc2nccc3cc(OC)c(OC)c1c23 |  | PBMC |  |  |  | 4 µM
CCCO[C@H](C(=O)O)c1c(C)ncc(-c2ccc(OCC3CCC3)cn2)c1N1CCC(C)(C)CC1 |  | MT-2 |  | luminescence | NL4-3 | 0.0112 µM
COc1cccc2ccc(-c3nnc(-c4ccc5c(c4)OCO5)o3)nc12 |  | TZM-bl |  | luminescence | UG070 | 135 µM
CC(=O)Nc1cnc(Oc2c(C)cc(C=O)cc2C)nc1Nc1ccc(C#N)cc1 |  | MT-4 |  | MTT | RES056 | >236 µM
COc1cccc2ccc(C(CC(=O)Nc3ccccc3)Nc3ccccc3)nc12 |  | TZM-bl |  | luminescence | VB59 | >130 µM
COc1cc2ccnc3c2c(c1OS(=O)(=O)c1ccccc1)N(C)C=C3 |  | PBMC |  |  |  | 8.1 µM
Cc1ccc(C(=O)NC2(C(=O)N[C@@]34CC[C@]5(C)[C@H](CC[C@@H]6[C@@]7(C)CC[C@H](OC(=O)C8C[C@@H](C(=O)O)C8(C)C)C(C)(C)[C@@H]7CC[C@]65C)C3=C(C(C)C)C(=O)C4)CC2)cn1 |  | MT-4 | V7A | p24 | NL4-3 | <0.01 µM
Cc1cc(S(N)(=O)=O)ccc1NC(=O)COc1ccc(Cl)cc1C(=O)c1cc(C#N)cc(C#N)c1 |  | HeLa + HELA CD4+ | RT-K103N | β-galactosidase | HXB2 | <0.01 µM
Cc1cc(C#N)cc(C)c1Oc1ncc(N)c(Nc2ccc(C#N)cc2)n1 |  | MT-4 |  | MTT | IIIB | 0.002 µM
Nc1nc2c(ncn2C2CC(O)C(COP(=O)(S)OC3CC(n4cnc5c(=O)[nH]c(N)nc54)OC3COP(O)(=S)OC3CC(n4cnc5c(=O)[nH]c(N)nc54)OC3COP(=O)(O)O)O2)c(=O)[nH]1 |  | MT-4 |  | cytopathic effect / MTT | IIIB | 43.8 µM
COc1cccc2ccc(/C=C/C(=O)Nc3ccccc3F)nc12 |  | TZM-bl |  | entry / luminescence |  | 1.4 µM
Cc1cc(C#N)cc(C(=O)c2cc(Cl)ccc2OCC(=O)Nc2ccc(S(N)(=O)=O)nc2C)c1 |  | HeLa + HELA CD4+ |  | β-galactosidase | WTRVA | <0.01 µM
Cc1nnc(C(=O)NC(C)(C)c2nc(C(=O)NCc3ccc(F)cc3)c(O)c(=O)n2C)o1 |  | HEK293T |  | p24 / ELISA | LAI | 0.0009–0.0018 µM
COc1ccc(N=Cc2cc3ccccc3nc2Nc2ccc(OC)cc2)cc1 |  | TZM-bl |  | luminescence | VB59 | >130 µM
Cc1ncc(-c2ccc(OC[C@@](C)(O)c3ccccc3)cn2)c(N2CCC(C)(C)CC2)c1[C@H](OC(C)(C)C)C(=O)O |  | MT-2 |  | luminescence | NL4-3 | 0.0071 µM

Repeating the final 8 entries:

Cc1cc(S(N)(=O)=O)ccc1NC(=O)COc1ccc(Cl)cc1C(=O)c1cc(C#N)cc(C#N)c1 ; cells: HeLa + HELA CD4+ ; mutations: RT-K103N ; method: β-galactosidase ; strain or isolate: HXB2 ; value: <0.01 µM
Cc1cc(C#N)cc(C)c1Oc1ncc(N)c(Nc2ccc(C#N)cc2)n1 ; cells: MT-4 ; method: MTT ; strain or isolate: IIIB ; value: 0.002 µM
Nc1nc2c(ncn2C2CC(O)C(COP(=O)(S)OC3CC(n4cnc5c(=O)[nH]c(N)nc54)OC3COP(O)(=S)OC3CC(n4cnc5c(=O)[nH]c(N)nc54)OC3COP(=O)(O)O)O2)c(=O)[nH]1 ; cells: MT-4 ; method: cytopathic effect / MTT ; strain or isolate: IIIB ; value: 43.8 µM
COc1cccc2ccc(/C=C/C(=O)Nc3ccccc3F)nc12 ; cells: TZM-bl ; method: entry / luminescence ; value: 1.4 µM
Cc1cc(C#N)cc(C(=O)c2cc(Cl)ccc2OCC(=O)Nc2ccc(S(N)(=O)=O)nc2C)c1 ; cells: HeLa + HELA CD4+ ; method: β-galactosidase ; strain or isolate: WTRVA ; value: <0.01 µM
Cc1nnc(C(=O)NC(C)(C)c2nc(C(=O)NCc3ccc(F)cc3)c(O)c(=O)n2C)o1 ; cells: HEK293T ; method: p24 / ELISA ; strain or isolate: LAI ; value: 0.0009–0.0018 µM
COc1ccc(N=Cc2cc3ccccc3nc2Nc2ccc(OC)cc2)cc1 ; cells: TZM-bl ; method: luminescence ; strain or isolate: VB59 ; value: >130 µM
Cc1ncc(-c2ccc(OC[C@@](C)(O)c3ccccc3)cn2)c(N2CCC(C)(C)CC2)c1[C@H](OC(C)(C)C)C(=O)O ; cells: MT-2 ; method: luminescence ; strain or isolate: NL4-3 ; value: 0.0071 µM